Data source: PubChem BioAssay AID624099 (ICCB-Longwood, 2012)
Shown is one part, drawn at random, of about 21,000 reagents tested. 497 of all reagents (2.4%) were called active. 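Higher z means weaker E2 silencing; only reporter increases were scored, and knock-downs that hurt cell survival may mask genuine repressor factors.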 Unmarked entries are inactive. The numbers tell different reagents against one gene apart.

Test: 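Human genes that papillomavirus E2 requires to repress the HPV18 LCR promoter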 (primary screen)
Cell system: human C33A cervical carcinoma cells (HPV-negative) stably expressing BPV1 E2 and an HPV18 LCR luciferase reporter
Knock-down reagent: siRNA pool against human genes, 40 nM
Time to read-out: 72 h
Read-out: 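HPV18 LCR reporter light per well, converted to plate-wise z-scores that exclude control wells, and averaged over triplicate plates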
Direction: mean z-score and z-score: higher = stronger reporter signal, weaker E2 silencing
Active means: 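Mean z ≥ 2 together with z ≥ 2 in two or more of the three replicates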

The opening 4 records, to show the layout:
Gene | pool no. | mean z-score | z-score, replicate A | z-score, replicate B | z-score, replicate C
GPC5 | 1 | -1 | -0.9 | -0.9 | -1.19
OR8A1 | 1 | -0.81 | -0.9 | -0.79 | -0.74
CA11 | 1 | -1.02 | -0.98 | -0.95 | -1.13
UBASH3A | 1 | 0.44 | 0.59 | -0.05 | 0.79

The listing, from the start:
Gene | pool no. | mean z-score | z-score, replicate A | z-score, replicate B | z-score, replicate C
GPC5 | 1 | -1 | -0.9 | -0.9 | -1.19
OR8A1 | 1 | -0.81 | -0.9 | -0.79 | -0.74
CA11 | 1 | -1.02 | -0.98 | -0.95 | -1.13
UBASH3A | 1 | 0.44 | 0.59 | -0.05 | 0.79
ELK3 | 1 | 0.14 | 0.38 | -0.07 | 0.11
LYRM9 | 1 | 1.06 | 0.73 | 1.4 | 1.06
TSPAN13 | 1 | 0.35 | -0.02 | 0.41 | 0.67
SPATA9 | 1 | -2.42 | -2.44 | -2.65 | -2.16
ABCB9 | 1 | -0.58 | -0.41 | -0.58 | -0.77
DDIT4 | 1 | -1.8 | -1.76 | -1.8 | -1.85
FSD1 | 1 | 0.22 | 0.04 | 0.48 | 0.14
SEC24A | 1 | -0.43 | -0.35 | -0.54 | -0.4
TM4SF19 | 1 | 0.08 | -0.4 | -0.23 | 0.86
NUDC | 1 | -1.22 | -1.42 | -1.06 | -1.18
CELF5 | 1 | -0.72 | -0.44 | -1.1 | -0.62
NPC1L1 | 1 | -2.49 | -1.74 | -2.81 | -2.93
ZSWIM9 | 1 | -0.43 | -0.36 | -0.38 | -0.56
METTL16 | 1 | -1.55 | -1.49 | -1.59 | -1.59
FLJ35816 (retired record) | 1 | -0.21 | -0.26 | -0.32 | -0.04
UBL4A | 1 | 0.17 | 0.33 | -0.16 | 0.34
TBPL2 | 1 | 2.33 (active) | 2.47 | 1.94 | 2.58
ACVR2B | 1 | 0.56 | 0.55 | 0.86 | 0.25
DDX1 | 1 | -0.34 | -0.24 | -0.65 | -0.14
APOO | 1 | -1.59 | -1.61 | -1.59 | -1.58
ZNF17 | 1 | 0.59 | 0.5 | 0.83 | 0.43
AXL | 1 | 0.12 | 0.33 | 0 | 0.02
OR12D3 | 1 | 0.81 | 0.62 | 0.84 | 0.97
XTBD1P1 | 1 | 0.79 | 1.18 | 0.24 | 0.93
LOC339693 (retired record) | 1 | -0.09 | 0.2 | 0.18 | -0.66
TWIST2 | 1 | 0.93 | 1.21 | 0.82 | 0.75
ADORA3 | 1 | -0.16 | -0.28 | -0.2 | -0.01
ADORA3 | 2 | 0.59 | 0.73 | 0.51 | 0.54
ANKS3 | 1 | -1.08 | -1.24 | -1.21 | -0.79
KCNJ2 | 1 | -0.65 | -0.57 | -0.8 | -0.59
SOX2 | 1 | 2.57 (active) | 2.73 | 2.69 | 2.28
MT-CO1 | 1 | 1.05 | 0.9 | 1.08 | 1.17
RNASEK | 1 | 1.02 | 1.22 | 0.77 | 1.07
UBQLN4P1 | 1 | 0.99 | 1.26 | 0.66 | 1.04
LOC388248 | 1 | -0.47 | -0.54 | -0.62 | -0.26
PHACTR2-AS1 | 1 | -2.55 | -1.99 | -2.36 | -3.28
NOP9 | 1 | -0.7 | -0.47 | -0.9 | -0.73
KDELR2 | 1 | -0.43 | -0.52 | -0.32 | -0.43
GTF2F1 | 1 | -0.2 | 0 | -0.44 | -0.18
ZDHHC19 | 1 | 0.13 | 0.39 | 0.14 | -0.14
PLEK | 1 | -1.05 | -1.14 | -1.02 | -0.99
C7 | 1 | -0.62 | -0.77 | -0.37 | -0.74
LOC401026 (retired record) | 1 | 0.48 | 0.56 | 0.58 | 0.31
TIMCC | 1 | 0.47 | 0.74 | 0.18 | 0.5
GOLGA7 | 1 | -0.87 | -0.63 | -1.07 | -0.92
C15orf40 | 1 | 0.88 | 0.48 | 0.99 | 1.17
WNT6 | 1 | 0.2 | 0.15 | 0.25 | 0.2
BMPR1B | 1 | -1.08 | -0.51 | -1.29 | -1.44
UBXN2A | 1 | 0.07 | 0.15 | 0.14 | -0.08
CFAP410 | 1 | 0.21 | 0.49 | 0.14 | -0.01
MMP15 | 1 | -1.56 | -1.5 | -1.81 | -1.36
KCNF1 | 1 | -0.43 | -0.09 | -0.48 | -0.73
C6orf141 | 1 | -1.64 | -1.54 | -1.65 | -1.74
